Compound potency records, mixed from different reports. Data source: NIAID ChemDB in PubChem.

Shared fields: whole-cell or culture tests; species: Candida parapsilosis

A number after MIC or MFC names an inhibition level or a share of isolates. ECn is the concentration giving n% inhibition of infection, replication or growth. Blank or dashed fields: not listed here. Conditions beyond the fields shown may differ between rows.

structure | measure | conditions | method | strain | result
Nn1c(SCC(O)(Cn2cncn2)c2ccc(F)cc2F)nnc1-c1ccc(Cl)cc1 | MIC | - | broth dilution | ATCC 22019 | >64 µg/mL
Cc1ccc(C(O)c2cccc(C(O)CCn3ccnc3)c2)cc1 | MIC | - | broth dilution | RTCC 1079 | >64 µg/mL
C[C@@H]1CC(=O)N(c2ccc(F)cc2F)C1=O | MIC | - | broth dilution / turbidity | CCC 124-2000 | 31.3 µg/mL
C[C@H]1[C@H](O)[C@@H](C)/C=C/C=C/C=C/C=C/C=C/C=C/C=C/[C@H](O[C@@H]2O[C@H](C)[C@@H](O)[C@H](N)[C@@H]2O)C[C@@H]2O[C@](O)(C[C@@H](O)C[C@@H](O)CC[C@H](O)[C@@H](O)C[C@@H](O)CC(=O)O[C@H]1C)C[C@H](O)[C@H]2C(=O)O | MIC | 48 h | broth dilution | NBRC 1396 | 1 µg/mL
Cc1ccc(-c2c3c(N)c4c(nc3nc3c2c(C)nn3-c2ccccc2)CCCCC4)cc1 | MIC50 | - | broth dilution / absorbance | CCC 124 | 62.5 µg/mL
O=C1S/C(=C\c2ccco2)C(=O)N1CC(O)(Cn1nccn1)c1ccc(F)cc1F | MIC80 | - | - | CNCYP51 | 1.16 µg/mL
COc1ccc(/C=N/O)cc1 | MIC | - | - | - | 3310 µM
CCN1C(=O)CS/C1=N/NC(=O)c1cn2ccccc2n1 | MIC | - | broth dilution | ATCC 22019 | 64 µg/mL
COc1ccc(-c2nnc(SCC(O)(Cn3cncn3)c3ccc(F)cc3F)n2N)cc1 | MIC | - | broth dilution | ATCC 22019 | >64 µg/mL
CN1C(=O)CS/C1=N/NC(=O)c1cn2ccccc2n1 | MIC | - | broth dilution | ATCC 22019 | 64 µg/mL
CC1CC(=O)N(c2ccc(F)cc2F)C1=O | MIC | - | broth dilution / turbidity | CCC 124-2000 | 250 µg/mL
O=C1S/C(=C\c2ccoc2)C(=O)N1CC(O)(Cn1nccn1)c1ccc(F)cc1F | MIC80 | - | - | CNCYP51 | 1.16 µg/mL
CC(C)=CCC/C(C)=C/CN(C)C(=N)N(C)C/C=C(\C)CCC=C(C)C | MIC | - | - | ATCC 22019 | 31.2 µg/mL
Cc1ccc(N2N=C(c3c[nH]c4ccccc34)CC2c2c(Cl)cccc2Cl)cc1 | MIC | - | broth dilution | NRRL Y-12696 | 200 µg/mL
O=C(CCn1ccnc1)c1ccc(Cl)cc1 | MIC | - | broth dilution | RTCC 1018 | >64 µg/mL
C[C@@H]1C(=O)N(CCCCc2ccccc2)C(=O)[C@@H]1C | MIC | - | broth dilution / turbidity | CCC 124-2000 | 62.5 µg/mL
O=C(NNC(=S)Nc1ccccc1)c1cn2ccccc2n1 | MIC | - | broth dilution | ATCC 22019 | 32 µg/mL
C[C@@H](c1ncncc1F)[C@](O)(Cn1cncn1)c1ccc(F)cc1F | MIC50 | - | broth dilution | - | 0.015 µg/mL
Cc1ccc(N/N=c2/sc3nnc(-c4ccncc4)n3nc2C)cc1 | MIC | - | broth dilution | ATCC 22019 | >100 µg/mL
Nc1ncccc1-c1cc(Cc2ccc(COc3ccccn3)cc2)no1 | MIC90 | - | broth dilution | - | 0.06 µg/mL
Nn1c(SCC(O)(Cn2cncn2)c2ccc(F)cc2F)nnc1-c1ccccc1 | MIC | - | broth dilution | ATCC 22019 | >64 µg/mL
O=C1S/C(=C\c2cccs2)C(=O)N1CC(O)(Cn1nccn1)c1ccc(F)cc1F | MIC80 | - | - | CNCYP51 | 2.23 µg/mL
C[C@@H]([C@H](N)C(=O)N[C@H](C(=O)O)[C@H]1O[C@@H](n2ccc(=O)[nH]c2=O)[C@H](O)[C@@H]1O)[C@H](O)c1ccc(O)cn1 | MIC | - | visual reading | - | >500 µg/mL
O=[N+]([O-])c1ccc(/C=N\O)cc1 | MIC | - | - | - | 3010 µM
CC(C)S(=O)(=O)Nc1ccc(CN(C)CC(O)(Cn2cncn2)c2ccc(F)cc2F)cc1 | MIC | - | resazurin | CAPA2 | 3.1 µg/mL
Cn1cccc1/C=C1\SC(=O)N(CC(O)(Cn2nccn2)c2ccc(F)cc2F)C1=O | MIC80 | - | - | CNCYP51 | 2.24 µg/mL
OC(CCn1ccnc1)c1ccc(Br)cc1 | MIC | - | broth dilution | RTCC 1079 | >64 µg/mL
CC1CC2=C(O1)c1ccccc1C(=O)C2=O | MIC | - | broth dilution | Clinical isolate | 16 µg/mL
CN[C@H]1CC[C@@H](c2ccc(Cl)c(Cl)c2)c2ccccc21 | MIC90 | - | broth dilution | MMRL1594 | 24 µg/mL
CCOc1ccc2nc3cc(N=C4NC(=O)/C(=C\C=C\c5ccc([N+](=O)[O-])o5)S4)ccc3c(N)c2c1 | MFC | - | broth dilution | - | >1000 µg/mL
Cc1ccc(N2C(=O)CC(C)C2=O)cc1 | MIC | - | broth dilution / turbidity | CCC 124-2000 | 250 µg/mL
Nn1c(SCC(O)(Cn2cncn2)c2ccc(Cl)cc2Cl)nnc1-c1ccc(O)cc1 | MIC | - | broth dilution | ATCC 22019 | >64 µg/mL
Cc1ccc(-c2c3c(N)c4c(nc3nc3c2c(C)nn3-c2ccccc2)CCC4)cc1 | MIC80 | - | broth dilution / absorbance | CCC 124 | 62.5 µg/mL
Cc1ccc(N2N=C(c3c[nH]c4ccccc34)CC2c2ccc(Cl)cc2Cl)cc1 | MIC | - | broth dilution | NRRL Y-12696 | 200 µg/mL
Nn1c(SCC(O)(Cn2cncn2)c2ccc(F)cc2F)nnc1-c1ccc(O)cc1 | MIC | - | broth dilution | ATCC 22019 | >64 µg/mL
C[C@H]1[C@H](O)[C@@H](C)/C=C/C=C/C=C/C=C/C=C/C=C/C=C/[C@H](O[C@@H]2O[C@H](C)[C@@H](O)[C@H](N)[C@@H]2O)C[C@@H]2O[C@](O)(C[C@@H](O)C[C@@H](O)CC[C@H](O)[C@@H](O)C[C@@H](O)CC(=O)O[C@H]1C)C[C@H](O)[C@H]2C(=O)O | MIC | - | broth dilution | 22019 | 0.125 µg/mL
Cc1ccc(N2N=C(c3c[nH]c4ccccc34)CC2c2cc(Cl)ccc2Cl)cc1 | MIC | - | broth dilution | NRRL Y-12696 | 100 µg/mL
Nn1c(SCC(O)(Cn2cncn2)c2ccc(F)cc2F)nnc1-c1ccc(F)cc1 | MIC | - | broth dilution | ATCC 22019 | >64 µg/mL
OC(CCn1ccnc1)c1cccc(C(O)c2ccc(Br)cc2)c1 | MIC | - | broth dilution | RTCC 1018 | >64 µg/mL
Brc1ccc(Nc2nnc(-c3cn4ccccc4n3)o2)cc1 | MIC | - | broth dilution | ATCC 22019 | 64 µg/mL
C/C(=N/O)C(Cl)(Cl)Cl | MIC | - | - | - | 3220 µM
O=C(/C=C/c1c(Cl)cccc1Cl)c1c[nH]c2ccccc12 | MIC | - | broth dilution | NRRL Y-12696 | 25 µg/mL
Cc1nn2c(-c3ccncc3)nnc2sc1=NNc1ccc(Cl)cc1 | MIC | - | broth dilution | ATCC 22019 | 6.25 µg/mL
CCOC(=O)CN(CCCOc1ccccc1)CC(O)(Cn1cncn1)c1ccc(F)cc1F | EC80 | - | - | - | >64 µg/mL
N=C(N)c1ccc(OCCCCCCOc2ccc(C(=N)N)cc2)cc1 | MIC | - | agar diffusion / agar | Cp1 | 26 µg/mL
O/N=C\c1ccccc1O | MIC100 | - | - | - | 3600 µM
Cc1ccccc1N/N=c1/sc2nnc(-c3ccncc3)n2nc1C | MIC | - | broth dilution | ATCC 22019 | >100 µg/mL
CC(C)=CCC/C(C)=C/CN=C(N)NC/C=C(\C)CCC=C(C)C | MIC | - | - | ATCC 22019 | 31.2 µg/mL
O=[N+]([O-])c1cccc(/C=N\O)c1 | MIC | - | - | - | 3010 µM
Cc1ccc(-c2c3c(N)c4c(nc3nc3c2c(C)nn3-c2ccccc2)CCCC4)cc1 | MIC50 | - | broth dilution / absorbance | CCC 124 | 31.2 µg/mL
Nn1c(SCC(O)(Cn2cncn2)c2ccc(Cl)cc2Cl)nnc1-c1ccncc1 | MIC | - | broth dilution | ATCC 22019 | >64 µg/mL
O=C(/C=C/c1cc(Cl)cc(Cl)c1)c1c[nH]c2ccccc12 | MIC | - | broth dilution | NRRL Y-12696 | 25 µg/mL
CCCNC(=S)NNC(=O)c1cn2ccccc2n1 | MIC | - | broth dilution | ATCC 22019 | 64 µg/mL
Nc1ncccc1-c1cc(Cc2ccc(COc3ccccn3)cc2)no1 | MIC90 | - | broth dilution | - | 0.016 µg/mL
C[C@H]1[C@H](O)[C@@H](C)/C=C/C=C/C=C/C=C/C=C/C=C/C=C/[C@H](O[C@@H]2O[C@H](C)[C@@H](O)[C@H](N)[C@@H]2O)C[C@@H]2O[C@](O)(C[C@@H](O)C[C@@H](O)CC[C@H](O)[C@@H](O)C[C@@H](O)CC(=O)O[C@H]1C)C[C@H](O)[C@H]2C(=O)O | MIC100 | - | broth dilution / absorbance | CCC 124 | 0.78 µg/mL
O=C(NNC(=S)Nc1ccc(F)cc1)c1cn2ccccc2n1 | MIC | - | broth dilution | ATCC 22019 | 64 µg/mL
O=C1S/C(=C\c2cccnc2)C(=O)N1CC(O)(Cn1nccn1)c1ccc(F)cc1F | MIC80 | - | - | CNCYP51 | 1.13 µg/mL
Nc1scc2c1c(=O)oc1ccccc12 | MIC | - | broth dilution | ATCC 22019 | 8 µg/mL
Nn1c(SCC(O)(Cn2cncn2)c2ccc(Cl)cc2Cl)nnc1-c1ccc(Cl)cc1 | MIC | - | broth dilution | ATCC 22019 | >64 µg/mL
O/N=C/c1ccc(O)cc1 | MIC | - | - | - | >7290 µM
CC1CC(=O)N(c2ccc(F)cc2)C1=O | MIC | - | broth dilution / turbidity | CCC 124-2000 | 250 µg/mL
CCCCCOc1ccc(-c2cc(-c3ccc(C(=O)N[C@H]4C[C@@H](O)[C@@H](O)NC(=O)[C@@H]5[C@@H](O)[C@@H](C)CN5C(=O)[C@H]([C@H](O)CC(N)=O)NC(=O)[C@H]([C@H](O)[C@@H](O)c5ccc(O)c(OS(=O)(=O)O)c5)NC(=O)[C@@H]5C[C@@H](O)CN5C(=O)[C@H]([C@@H](C)O)NC4=O)cc3)no2)cc1 | MIC50 | - | broth dilution | - | 1 µg/mL
C=CCc1ccc(O)c(OC)c1 | MIC90 | - | turbidity | 2918 | 485 µg/mL
Cc1ccc(-c2nnc(SCC(O)(Cn3cncn3)c3ccc(F)cc3F)n2N)cc1 | MIC | - | broth dilution | ATCC 22019 | >64 µg/mL
O=C(CCn1ccnc1)c1ccc(Br)cc1 | MIC | - | broth dilution | RTCC 1079 | 64 µg/mL
CCC(C)CC(C)CCCCCCCCC(=O)N[C@H]1C[C@@H](O)[C@H](NCCN)NC(=O)[C@@H]2[C@@H](O)CCN2C(=O)[C@H]([C@H](O)CCN)NC(=O)[C@H]([C@H](O)[C@@H](O)c2ccc(O)cc2)NC(=O)[C@@H]2C[C@@H](O)CN2C(=O)[C@H]([C@@H](C)O)NC1=O | MIC | - | broth dilution | 9150 | 1 µg/mL

The first 6 rows once more:

structure | measure | conditions | method | strain | result
Nn1c(SCC(O)(Cn2cncn2)c2ccc(F)cc2F)nnc1-c1ccc(Cl)cc1 | MIC | - | broth dilution | ATCC 22019 | >64 µg/mL
Cc1ccc(C(O)c2cccc(C(O)CCn3ccnc3)c2)cc1 | MIC | - | broth dilution | RTCC 1079 | >64 µg/mL
C[C@@H]1CC(=O)N(c2ccc(F)cc2F)C1=O | MIC | - | broth dilution / turbidity | CCC 124-2000 | 31.3 µg/mL
C[C@H]1[C@H](O)[C@@H](C)/C=C/C=C/C=C/C=C/C=C/C=C/C=C/[C@H](O[C@@H]2O[C@H](C)[C@@H](O)[C@H](N)[C@@H]2O)C[C@@H]2O[C@](O)(C[C@@H](O)C[C@@H](O)CC[C@H](O)[C@@H](O)C[C@@H](O)CC(=O)O[C@H]1C)C[C@H](O)[C@H]2C(=O)O | MIC | 48 h | broth dilution | NBRC 1396 | 1 µg/mL
Cc1ccc(-c2c3c(N)c4c(nc3nc3c2c(C)nn3-c2ccccc2)CCCCC4)cc1 | MIC50 | - | broth dilution / absorbance | CCC 124 | 62.5 µg/mL
O=C1S/C(=C\c2ccco2)C(=O)N1CC(O)(Cn1nccn1)c1ccc(F)cc1F | MIC80 | - | - | CNCYP51 | 1.16 µg/mL